Reference: ChEMBL document CHEMBL1149138 (J Med Chem, 2004)

Protein sequences, listed by entry. Tags and fused reporters are not part of them.
UniProt P03468, whole entry, looked up: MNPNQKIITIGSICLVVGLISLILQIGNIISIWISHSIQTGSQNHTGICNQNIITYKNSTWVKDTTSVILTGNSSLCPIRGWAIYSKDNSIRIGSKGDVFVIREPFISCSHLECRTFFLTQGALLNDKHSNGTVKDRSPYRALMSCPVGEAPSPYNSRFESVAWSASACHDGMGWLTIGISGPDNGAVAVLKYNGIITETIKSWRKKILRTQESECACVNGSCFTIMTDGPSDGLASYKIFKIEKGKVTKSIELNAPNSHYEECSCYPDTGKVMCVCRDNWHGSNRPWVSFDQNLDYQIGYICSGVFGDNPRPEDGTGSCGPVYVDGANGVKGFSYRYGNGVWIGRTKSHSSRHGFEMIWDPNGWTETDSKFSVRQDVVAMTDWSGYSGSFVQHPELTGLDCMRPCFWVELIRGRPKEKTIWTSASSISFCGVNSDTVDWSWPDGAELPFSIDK

The compounds below were run against Neuraminidase (Influenza A virus (A/Puerto Rico/8/1934(H1N1)), UniProt P03468) (assay: In vitro inhibitory activity of compound against influenza neuraminidase A).
Work on `CC(=O)NC(C(=O)N1CCCC1)[C@H]1CC(C(=O)O)C[C@@H]1N=C(N)N` (stereo partly drawn) yielded an IC50 of 470 nM.
`CCCCN(C)C(=O)C(NC(C)=O)[C@H]1CC(C(=O)O)C[C@@H]1N=C(N)N` (stereo partly drawn) showed an IC50 of 2400 nM.
In the case of `CCN(Cc1ccccc1)C(=O)C(NC(C)=O)[C@H]1CC(C(=O)O)C[C@@H]1N=C(N)N` (stereo partly drawn), the IC50 is reported as 670 nM.
`CCCC(C)NC(=O)C(NC(C)=O)[C@H]1CC(C(=O)O)C[C@@H]1N=C(N)N` (stereo partly drawn) showed an IC50 of 3200 nM.
For `CCCCCCN(C)C(=O)C(NC(C)=O)[C@H]1CC(C(=O)O)C[C@@H]1N=C(N)N` (stereo partly drawn), the IC50 was 12400 nM.
In the case of `CC(=O)NC(C(=O)N1CCCCCC1)[C@H]1CC(C(=O)O)C[C@@H]1N=C(N)N` (stereo partly drawn), the IC50 is reported as 990 nM.
`CC(=O)NC(C(=O)N1CCSCC1)[C@H]1CC(C(=O)O)C[C@@H]1N=C(N)N` (stereo partly drawn) gave an IC50 of 230 nM.
With `COCC(C)NC(=O)C(NC(C)=O)[C@H]1CC(C(=O)O)C[C@@H]1N=C(N)N` (stereo partly drawn) the IC50 was 4400 nM.
With `CCC(COC)NC(=O)C(NC(C)=O)[C@H]1CC(C(=O)O)C[C@@H]1N=C(N)N` (stereo partly drawn) the IC50 was 2200 nM.
With `C=CCNC(=O)C(NC(C)=O)[C@H]1CC(C(=O)O)C[C@@H]1N=C(N)N` (stereo partly drawn) the IC50 was 720 nM.
For `CC(=O)NC(C(=O)NCCc1ccccc1)[C@H]1CC(C(=O)O)C[C@@H]1N=C(N)N` (stereo partly drawn), the IC50 was 6400 nM.
`CC(=O)NC(C(=O)N1CC(C)CC(C)C1)[C@H]1CC(C(=O)O)C[C@@H]1N=C(N)N` (stereo partly drawn) gave an IC50 of 3500 nM.
`CC(=O)NC(C(=O)N1CCCCC1C)[C@H]1CC(C(=O)O)C[C@@H]1N=C(N)N` (stereo partly drawn) was tested, and the IC50 was 240 nM.
With `CC(=O)NC(C(=O)N1CCC(C)CC1)[C@H]1CC(C(=O)O)C[C@@H]1N=C(N)N` (stereo partly drawn) the IC50 was 8200 nM.
With `CCCN(CC)C(=O)C(NC(C)=O)[C@H]1CC(C(=O)O)C[C@@H]1N=C(N)N` (stereo partly drawn) the IC50 was 130 nM.
`CCCCC(C)NC(=O)C(NC(C)=O)[C@H]1CC(C(=O)O)C[C@@H]1N=C(N)N` (stereo partly drawn) showed an IC50 of 8700 nM.
`CCN(CCO)C(=O)C(NC(C)=O)[C@H]1CC(C(=O)O)C[C@@H]1N=C(N)N` (stereo partly drawn) was tested, and the IC50 was 720 nM.
Compound `C=CCN(C)C(=O)C(NC(C)=O)[C@H]1CC(C(=O)O)C[C@@H]1N=C(N)N` (stereo partly drawn) has an IC50 of 650 nM.
Work on `CCC(CC)NC(=O)C(NC(C)=O)[C@H]1CC(C(=O)O)C[C@@H]1N=C(N)N` (stereo partly drawn) yielded an IC50 of 80 nM.
For `CC(=O)NC(C(=O)N1CCOCC1)[C@H]1CC(C(=O)O)C[C@@H]1N=C(N)N` (stereo partly drawn), the IC50 was 40 nM.
Work on `CCN(CC)C(=O)C(NC(C)=O)[C@H]1CC(C(=O)O)C[C@@H]1N=C(N)N` (stereo partly drawn) yielded an IC50 of 15 nM.
In the case of `CC(=O)NC(C(=O)N1CCCCC1)[C@H]1CC(C(=O)O)C[C@@H]1N=C(N)N` (stereo partly drawn), the IC50 is reported as 150 nM.
`CCNC(=O)C(NC(C)=O)[C@H]1CC(C(=O)O)C[C@@H]1N=C(N)N` (stereo partly drawn) showed an IC50 of 330 nM.
Work on `CCCN(C)C(=O)C(NC(C)=O)[C@H]1CC(C(=O)O)C[C@@H]1N=C(N)N` (stereo partly drawn) yielded an IC50 of 940 nM.
With `CC(=O)NC(C(=O)N(C)CCc1ccccc1)[C@H]1CC(C(=O)O)C[C@@H]1N=C(N)N` (stereo partly drawn) the IC50 was 8000 nM.
Compound `CCCN(CCC)C(=O)C(NC(C)=O)[C@H]1CC(C(=O)O)C[C@@H]1N=C(N)N` (stereo partly drawn) has an IC50 of 60 nM.
`CCCC1CCCCN1C(=O)C(NC(C)=O)[C@H]1CC(C(=O)O)C[C@@H]1N=C(N)N` (stereo partly drawn) showed an IC50 of 150 nM.
`CCC1CCCCN1C(=O)C(NC(C)=O)[C@H]1CC(C(=O)O)C[C@@H]1N=C(N)N` (stereo partly drawn) gave an IC50 of 180 nM.
`CC(=O)NC(C(=O)N(C)C(C)C)[C@H]1CC(C(=O)O)C[C@@H]1N=C(N)N` (stereo partly drawn) showed an IC50 of 3210 nM.
`CC(=O)NC(C(=O)N1CCC1)[C@H]1CC(C(=O)O)C[C@@H]1N=C(N)N` (stereo partly drawn) was tested, and the IC50 was 920 nM.
Compound `CCCCN(CC)C(=O)C(NC(C)=O)[C@H]1CC(C(=O)O)C[C@@H]1N=C(N)N` (stereo partly drawn) has an IC50 of 430 nM.
For `CC(=O)NC(C(=O)NC(C)CCc1ccccc1)[C@H]1CC(C(=O)O)C[C@@H]1N=C(N)N` (stereo partly drawn), the IC50 was 230 nM.
Compound `CCCCNC(=O)C(NC(C)=O)[C@H]1CC(C(=O)O)C[C@@H]1N=C(N)N` (stereo partly drawn) has an IC50 of 9900 nM.
Compound `CC(=O)NC(C(=O)NC(C)CC(C)C)[C@H]1CC(C(=O)O)C[C@@H]1N=C(N)N` (stereo partly drawn) has an IC50 of 8400 nM.
`CCCN(CC1CC1)C(=O)C(NC(C)=O)[C@H]1CC(C(=O)O)C[C@@H]1N=C(N)N` (stereo partly drawn) was tested, and the IC50 was 200 nM.
With `CCCCC(CC)NC(=O)C(NC(C)=O)[C@H]1CC(C(=O)O)C[C@@H]1N=C(N)N` (stereo partly drawn) the IC50 was 1800 nM.
`CCC(C)NC(=O)C(NC(C)=O)[C@H]1CC(C(=O)O)C[C@@H]1N=C(N)N` (stereo partly drawn) gave an IC50 of 410 nM.
`CC(=O)NC(C(=O)NC(C)C)[C@H]1CC(C(=O)O)C[C@@H]1N=C(N)N` (stereo partly drawn) showed an IC50 of 1340 nM.
